Measured values from several laboratories, pooled; numbers as filed in NIAID ChemDB.

Common to all: enzyme or target tests; organism: HIV; target: Reverse transcriptase

Conditions beyond the fields shown may differ between rows. ICn is the concentration giving n% inhibition. Blank or dashed fields: not listed here.

SMILES,read by,mutations,endpoint,result
NS(=O)(=O)c1ccc(CCNC(=O)Cc2cccs2)cc1,nucleotide incorporation,Y181C,IC50,7.4 µM
Cc1cn([C@@H]2O[C@H](CO[Si](C)(C)C(C)(C)C)C3(OS(=O)(=O)C=C3N)[C@H]2O[Si](C)(C)C(C)(C)C)c(=O)n(C)c1=O,nucleotide incorporation / radiometric,RT-N137D,IC50,1.2 µM
Nc1nc2c(ncn2[C@H]2CC[C@@H](COP(=O)(O)OP(=O)(O)OP(=O)(O)O)O2)c(=O)[nH]1,-,RT-E138K(P66 ONLY),IC50,0.028 µM
O=C1c2ccccc2C2(c3ccccc3)SCCN12,ELISA,RT-Y188L,IC50,140 µM
C[C@H](Cn1cnc2c(N)ncnc21)OCP(=O)(O)OP(=O)(O)OP(=O)(O)O,-,-,IC50,0.45 µM
Cc1cn([C@@H]2O[C@H](CO[Si](C)(C)C(C)(C)C)C3(OS(=O)(=O)C=C3N)[C@H]2O[Si](C)(C)C(C)(C)C)c(=O)n(C)c1=O,-,RT-E138K(P51 ONLY),IC50,>100 µM
Cc1cc(C)cc([C@]23SCCN2C(=O)c2ccccc23)c1,ELISA,RT-K101A,IC50,4.8 µM
CC(C)Nc1cccnc1N1CCN(C(=O)c2cc3ccccc3[nH]2)CC1,nucleotide incorporation,RT-Y181C,IC50,37 µM
Cc1c(Sc2ccccc2)n(COCCO)c(=O)[nH]c1=O,-,RT-K103N Y181I Y188L,IC50,>5 µM
COc1ccc2c(c1)N(C(=O)OC(C)C)[C@@H](CSC)C(=S)N2,RT activity,RT-D67N K70R T215F K219Q Y188H,IC50,0.028 µg/mL
Cc1cn([C@@H]2O[C@H](CO[Si](C)(C)C(C)(C)C)C3(OS(=O)(=O)C=C3N)[C@H]2O[Si](C)(C)C(C)(C)C)c(=O)n(C)c1=O,nucleotide incorporation,RT-E138K,IC50,>750 µM
Nc1ccn([C@H]2CC[C@@H](COP(=O)(O)OP(=O)(O)OP(=O)(O)O)O2)c(=O)n1,-,RT-K65R S68G,IC50,12.6 µM
CO[P@](=O)(c1cc(C)cc(/C=C/C#N)c1)c1c(C(N)=O)[nH]c2ccc(Cl)c(F)c12,-,L1001,IC50,0.16 µM
Nc1nc2c(ncn2[C@H]2C=C[C@@H](COP(=O)(O)OP(=O)(O)OP(=O)(O)O)C2)c(=O)[nH]1,-,-,Ki,0.11 µM
Cc1c(C(C)c2c(F)cccc2F)nc(NC2CCCC2)[nH]c1=O,nucleotide incorporation / radiometric,RT-K103N,IC50,0.08 µM
Nc1ncnc2c1ncn2[C@H]1CC[C@@H](COP(=O)(O)OP(=O)(O)OP(=O)(O)O)O1,-,-,IC50,0.18 µM
CC(C)=CCOc1cc(NC(=S)c2ccoc2C)ccc1Cl,nucleotide incorporation / radiometric,RT-N137Q,IC50,0.027 µM
Nc1ccn([C@@H]2CS[C@H](COP(=O)(O)OP(=O)(O)OP(=O)(O)O)O2)c(=O)n1,-,-,Ki,2 µM
Cc1cn([C@@H]2O[C@H](CO[Si](C)(C)C(C)(C)C)[C@@]3(OS(=O)(=O)C=C3N)[C@H]2O[Si](C)(C)C(C)(C)C)c(=O)[nH]c1=O,nucleotide incorporation / radiometric,RT-N137E,IC50,2 µM
Cc1cn([C@H]2C=C[C@@H](COP(=O)(O)OP(=O)(O)OP(=O)(O)O)O2)c(=O)[nH]c1=O,-,-,Ki,0.06 µM
O=c1[nH]cnc2c1ncn2[C@H]1CC[C@@H](CO)O1,RT activity,RT-L74V M184V,IC50,4.4 µM

A second listing of 3 rows from above:

SMILES | read by | mutations | endpoint | result
Cc1cn([C@@H]2O[C@H](CO[Si](C)(C)C(C)(C)C)[C@@]3(OS(=O)(=O)C=C3N)[C@H]2O[Si](C)(C)C(C)(C)C)c(=O)[nH]c1=O | nucleotide incorporation / radiometric | RT-N137E | IC50 | 2 µM
Cc1cn([C@@H]2O[C@H](CO[Si](C)(C)C(C)(C)C)C3(OS(=O)(=O)C=C3N)[C@H]2O[Si](C)(C)C(C)(C)C)c(=O)n(C)c1=O | - | RT-E138K(P51 ONLY) | IC50 | >100 µM
Cc1cn([C@@H]2O[C@H](CO[Si](C)(C)C(C)(C)C)C3(OS(=O)(=O)C=C3N)[C@H]2O[Si](C)(C)C(C)(C)C)c(=O)n(C)c1=O | nucleotide incorporation | RT-E138K | IC50 | >750 µM